Results of unrelated studies side by side (data: NIAID ChemDB).

All rows: growth or infection tests; organism: Hepatitis B virus; endpoint: EC50

Blank or dashed fields: not listed here. Rows are shuffled and stem from different studies. a–b is a range or a potency band. ECn is the concentration giving n% inhibition of infection, replication or growth.

SMILES	cells	strain or isolate	method	result
COCCCOc1ccc2c(c1)S(=O)(=O)C(C)c1cc(C(=O)O)c(=O)n(C3CC3)c1-2	Primary human hepatocytes	-	antigen / visual reading / absorbance	>0.5 µM
CS(=O)(=O)c1ccc(C(=O)NC23CC(c4nc5ccc(Cl)cc5o4)(C2)C3)o1	Primary human hepatocytes	-	antigen / luminescence	5.971 µM
Cn1cc(S(=O)(=O)N[C@@H]2CCN(C(=O)C(=O)NC3CC3)C2)c(F)c1C(=O)Nc1ccc(F)c(F)c1	HepAD38 cells	-	PCR	<0.1 µM
CC(C)Oc1ccc(-n2c(C(=O)NCc3ccccc3)c3n(c2=O)CCN(C(=O)c2ccc(Cl)c(Cl)c2)C3)cc1	HepG2.117	-	PCR	0.5–5 µM
Cn1cc(S(=O)(=O)N[C@@H]2CCN(S(=O)(=O)C3CCCC3)C2)c(F)c1C(=O)Nc1ccc(F)c(F)c1	HepAD38 cells	-	PCR	0.1–0.3 µM
COCCCOc1cc2c(cc1F)-c1c(cc(C(=O)O)c(=O)n1C1CC1)C(C(C)C)S2(=O)=O	Primary human hepatocytes	-	antigen	>0.5 µM
O=C(NCc1ccccc1)C1=C2CN(C(=O)c3ccc(Br)c(Cl)c3)CCN2C(=O)C1c1ccc(-c2ncc[nH]2)cc1	HepG2.117	-	PCR	0.5–5 µM
N=c1nc(N)c2ncn([C@@H]3O[C@H](CO)[C@@H](O)[C@H]3O)c2c(N)n1	2.2.15	-	antigen	<10 µM
CC1c2cc(C(=O)O)c(=O)n(C3CC3)c2-c2cc(Cl)c(OCC(F)F)cc2S1(=O)=O	Primary human hepatocytes	-	antigen / visual reading / absorbance	0.1–0.5 µM
c1ccc(COc2ccccc2-c2ccc3ncnc(Nc4ccc(N5CCOCC5)cc4)c3c2)cc1	HUH 9B	-	replicon	1–5 µM
COc1ccc(CNC(=O)c2c3n(c(=O)n2-c2ccccc2)CCN(C(=O)c2ccc(Br)c(Cl)c2)C3)c(F)c1	HepG2.117	-	PCR	0.1–0.5 µM
CC(Oc1cc2c(cc1Cl)-c1c(cc(C(=O)O)c(=O)n1C1CC1)C(C)S2(=O)=O)C1CC1	Primary human hepatocytes	-	antigen / visual reading / absorbance	0.1–0.5 µM
c1csc(-c2ccc3ncnc(Nc4ccc(N5CCOCC5)cc4)c3c2)n1	HUH 9B	-	replicon	<1 µM
CCOC(=O)CSc1nnc(CNc2ccccc2)n1-c1ccccc1	HepG2 2.2.15	-	ELISA	31.6 µM
CCNC(=O)C(=O)N[C@@H]1CCN(S(=O)(=O)c2cn(C)c(C(=O)Nc3cc(F)c(F)c(F)c3)c2F)C1	HepAD38 cells	-	PCR	0.3–1 µM
Cc1ccc(NCc2nnc(SCC(=O)NN)n2-c2ccccc2)cc1	HepG2 2.2.15	-	ELISA	1 µM
O=c1c(-c2cc(CO)n(-c3ccc(Br)cc3)n2)nc2ccccc2n1CC(Br)CBr	HepG2 2.2.15	-	ELISA	0.21 µM
C[C@H](Oc1ccc([C@@H](C)NC(=O)c2c3n(c(=O)n2-c2ccc(OCC(F)(F)F)cc2)CCN(C(=O)c2ccc(Br)c(Cl)c2)C3)c(F)c1)C(N)=O	HepG2.117	-	PCR	0.5–5 µM
CC(=O)OCCNC(=O)C(=O)N1CC[C@@H](NS(=O)(=O)c2cn(C)c(C(=O)Nc3cc(F)c(F)c(F)c3)c2F)C1	HepAD38 cells	-	PCR	<0.1 µM
O=C(NCc1ccc(-n2ccnc2)cc1)c1c2n(c(=O)n1-c1ccc(OCC(F)(F)F)cc1)CCN(C(=O)c1ccc(Br)c(Cl)c1)C2	HepG2.117	-	PCR	0.1–0.5 µM
OC[C@H]1OC2OC[C@H](c3ccc(O)c(O)c3)OC2[C@@H](O[C@@H]2OC[C@](O)(CO)[C@H]2O)[C@@H]1O	HepG2.2.15	-	ELISA / antigen	500 µM
O=C(O)c1ccc(-c2ccc3ncnc(Nc4ccc(N5CCOCC5)cc4)c3c2)s1	HUH 9B	-	replicon	5–25 µM
CN(/C=C1\SC(=O)NC1=O)Cc1cccc2ccccc12	HepG2 2.2.15	-	ELISA	9.56 µM
CC1(CO)O[C@H](n2cnc3c(N)ncnc32)[C@@H](O)[C@H]1O	HepG2.2.15	-	-	>10 µM
CP(C)(=O)c1cccc(C(=O)NC2CC3(C2)CC(c2nc4cc(Cl)ccc4s2)C3)c1	Primary human hepatocytes	-	luminescence	3.39 µM
O=C(O)c1cc2c(n(C3CC3)c1=O)-c1cc(Cl)c(O)cc1S(=O)(=O)C2	Primary human hepatocytes	-	antigen / visual reading / absorbance	>0.5 µM
CC(=O)Nc1cccc(-c2ccc3ncnc(Nc4ccc(N5CCOCC5)cc4)c3c2)c1	HUH 9B	-	replicon	1–5 µM
COC1OC(Cn2c(C)cc(=O)nc2SC)C(O)C1O	HepG2 2.2.15	-	ELISA	>100 µM
COCc1ccc(C(=O)NC2CC3(C2)CC(c2nc4cc(Cl)ccc4o2)C3)o1	Primary human hepatocytes	-	luminescence	7.965 µM
OC[C@H]1O[C@@H](OCCc2ccc(O)c(O)c2)[C@H](O)[C@@H](O[C@@H]2OC[C@](O)(CO)[C@H]2O)[C@@H]1O	HepG2.2.15	-	ELISA / antigen	260 µM
COC(C)C(=O)Nc1ccc(-c2nc3cccnc3o2)cc1	Primary human hepatocytes (PHH)	-	antigen / luminescence	1.61 µM
Cc1cn([C@H]2OC(C)(CO)[C@H](O)[C@@H]2O)c(=O)[nH]c1=O	HepG2.2.15	-	-	>10 µM
CNS(=O)(=O)N1CCCC(C)(NS(=O)(=O)c2cn(C)c(C(=O)Nc3ccc(F)c(F)c3)c2F)C1	HepAD38 cells	-	PCR	<0.1 µM
S=c1nc(CNc2ccccc2)[nH][nH]1	HepG2 2.2.15	-	ELISA	8 µM
CN(C)C(=O)c1ccc2ncnc(Nc3ccc(N4CCOCC4)cc3)c2c1	HUH 9B	-	replicon	1–5 µM
C[C@H]1Cn2c(c(C(=O)NCc3ccccc3-c3ncccn3)n(-c3ccc(-n4cccn4)cc3)c2=O)CN1C(=O)c1ccc(Br)c(C#N)c1	HepG2.2.15	-	PCR	0.5–5 µM
FC(F)(F)c1cc(N2CCOCC2)ccc1Nc1ncnc2ccc(-c3cccs3)cc12	HUH 9B	-	replicon	<1 µM
O=C(O)COc1ccc(-n2c(C(=O)NCc3ccccc3)c3n(c2=O)CCN(C(=O)c2ccc(Br)c(Cl)c2)C3)cc1	HepG2.117	-	PCR	>5 µM
COc1cc(C(=O)NC2CC3(C2)CN(c2nc4cc(Cl)ccc4o2)C3)ccn1	Primary human hepatocytes (PHH)	-	antigen / luminescence	5.732 µM
CN1[C@H](C(=O)Nc2ccc(F)c(Cl)c2)C[C@H](c2ncc(-c3cn(C)cn3)s2)NS1(=O)=O	PHH	Genotype D	ELISA	0.16 µM
CS(=O)(=O)c1cc(C(=O)NCC2CCN(c3nc4cc(Cl)ccc4o3)CC2)ccn1	Primary human hepatocytes (PHH)	-	antigen / luminescence	6.282 µM
C[C@]1(CO)O[C@@H](n2cnc3c(=O)[nH]c(N)nc32)[C@H](O)[C@@H]1O	HepG2.2.15	-	-	>10 µM
Nc1ccn([C@@H]2CS[C@H](CO)O2)c(=O)n1	HepG2 2.2.15	-	ELISA	<0.1 µM
COC1OC(CSc2ncc(C)c(=O)[nH]2)C(O)C1O	HepG2 2.2.15	-	ELISA	>100 µM
CN1c2cc3c(cc2NC(c2ccc(C(=O)O)cc2)c2ccccc21)C(C)(C)CCC3(C)C	HepG2-NTCPsec+	Genotype D	visual reading / absorbance	11.68 µM
C=C(C)[C@@H]1CC[C@]2(C(=O)OC)CC[C@]3(COC(=O)c4ccccc4)C(CCC4[C@@]5(C)CC[C@H](OC(C)=O)CC5C(C)(C)C[C@]43C)C12	HepG2.2.15	-	ELISA	8.9 µM
CCNC(=O)C(=O)N1CC(C)C(NS(=O)(=O)c2cn(C)c(C(=O)Nc3cc(F)c(F)c(F)c3)c2F)C1	HepAD38 cells	-	PCR	<0.1 µM
O=C(O)c1cc2c(n(C3CC3)c1=O)-c1cc(Cl)c(OCC3COC3)cc1S(=O)(=O)C2	Primary human hepatocytes	-	antigen / visual reading / absorbance	0.05–0.1 µM
Cc1cc(F)cc(C(=O)Nc2ccc(-c3nnc(-c4ccccc4)o3)cc2)c1	Primary human hepatocytes (PHH)	-	antigen / luminescence	1.61 µM
O=C(Nc1ccc2nn(-c3ccc(Cl)cc3)nc2c1)C1CCOC1	Primary human hepatocytes (PHH)	-	antigen / luminescence	4 µM
CCCc1cc(=O)[nH]c(SCC2OC(OC)C(O)C2O)n1	HepG2 2.2.15	-	ELISA	<100 µM
COc1ccc(-n2c(C(=O)NC(C)c3ccc(F)cc3)c3n(c2=O)CCN(C(=O)c2ccc(Br)c(Cl)c2)C3)cc1	HepG2.117	-	PCR	0.1–0.5 µM
NC(=O)c1cc(C(=O)NC2CC3(C2)CC(c2nc4cc(Cl)ccc4s2)C3)ccn1	Primary human hepatocytes	-	luminescence	4.06 µM
Cc1ccc(NCc2nnc(Nc3ccccc3)s2)cc1	HepG2 2.2.15	-	ELISA	52 µM
COC1OC(Cn2ccc(=O)nc2SC)C(O)C1O	HepG2 2.2.15	-	ELISA	>100 µM

7 of the rows above, restated:

SMILES | cells | strain or isolate | method | result
O=C(Nc1ccc2nn(-c3ccc(Cl)cc3)nc2c1)C1CCOC1 | Primary human hepatocytes (PHH) | - | antigen / luminescence | 4 µM
CN1[C@H](C(=O)Nc2ccc(F)c(Cl)c2)C[C@H](c2ncc(-c3cn(C)cn3)s2)NS1(=O)=O | PHH | Genotype D | ELISA | 0.16 µM
N=c1nc(N)c2ncn([C@@H]3O[C@H](CO)[C@@H](O)[C@H]3O)c2c(N)n1 | 2.2.15 | - | antigen | <10 µM
S=c1nc(CNc2ccccc2)[nH][nH]1 | HepG2 2.2.15 | - | ELISA | 8 µM
CCNC(=O)C(=O)N[C@@H]1CCN(S(=O)(=O)c2cn(C)c(C(=O)Nc3cc(F)c(F)c(F)c3)c2F)C1 | HepAD38 cells | - | PCR | 0.3–1 µM
C[C@H](Oc1ccc([C@@H](C)NC(=O)c2c3n(c(=O)n2-c2ccc(OCC(F)(F)F)cc2)CCN(C(=O)c2ccc(Br)c(Cl)c2)C3)c(F)c1)C(N)=O | HepG2.117 | - | PCR | 0.5–5 µM
OC[C@H]1O[C@@H](OCCc2ccc(O)c(O)c2)[C@H](O)[C@@H](O[C@@H]2OC[C@](O)(CO)[C@H]2O)[C@@H]1O | HepG2.2.15 | - | ELISA / antigen | 260 µM